This experiment addresses B. anthracis (anthrax) protective antigen (B. anthracis) (UniProt P13423).

Values joined by “and” are separate entries in the source; they are usually repeats but may differ in a detail not shown here. Equal values may be shown once.

Turning to “MS2 single-chain dimer coat protein VLPs displaying no scFv (from pDSP62) (from UniProt P03612 2-130)”, the OD was 0.267 OD and 0.232 OD.

These data come from patent US20130017210A1.
